In patent US20250009777A1 (priority 2021, published 2025):

Test system: AG129 mouse-adapted DENV2
Type: in vivo, mice
Conditions: three days post infection, 50 and 150 mg/kg groups compared with vehicle, n=5 per group; FIG. 2B

O=c1ccn([C@@H]2O[C@H](CO)[C@@H](O)[C@H]2O)c(=S)[nH]1 [2-thiouridine]
viral RNA level in the serum (log10(number of DENV2 copies)/mL): decreased in a 2-thiouridine dosage-dependent manner
